Measured values from several laboratories, pooled; numbers as filed in NIAID ChemDB.

All rows: whole-cell or culture tests; species: HIV-1; read by: MTT; read-out: EC50

An empty or dashed field is not shown. ECn: concentration that inhibits the pathogen or its effect by n%. Rows are shuffled and stem from different studies.

SMILES | strain or isolate | cells | mutations | value
Cc1cc(/C=C/C#N)cc(C)c1Oc1nc(N/N=C/c2ccc(C#N)cc2)nc2ccsc12 | RES056 | MT-4 | K103N/Y181C | >96.6 µM
C#Cc1ccc(Nc2nccc(Oc3c(C)cc(-c4cn(CC(=O)OC)nn4)cc3C)n2)cc1 | IIIB | MT-4 | Y188L | >10.35 µM
Cc1cc(C)cc(S(=O)(=O)c2c(C(N)=O)[nH]c3ccc(Cl)cc23)c1 | WILD TYPE | C8166 |  | 0.01 µM
CC(C)=CCc1c(O)ccc(C(=O)/C=C/c2ccc(O)cc2)c1O | IIIB | MT-4 |  | >20 µg/mL
C=C1[C@H](CO)[C@@H](O)C[C@@H]1n1cnc2c(=O)[nH]c(N)nc21 | RES056 | MT-4 | K103N/Y181C | 0.035 µM
CC(C)(C)n1cc(C(=O)O)c(=O)c2cc(Br)c(Oc3ccnc(Nc4ccc(C#N)cc4)n3)cc21 | IIIB | MT-4 | K103N Y181C NNRTI-resistant | >23.58 µM
Cn1c(=O)cc(Oc2nc(Nc3ccc(C#N)cc3)nc(Sc3nc4ccccc4s3)n2)c2ccccc21 | IIIB |  |  | >72.78 µg/mL
CC(C)(C)NC(=O)[C@@H]1C[C@@H]2CCCC[C@@H]2CN1C[C@@H](O)[C@H](Cc1ccccc1)NC(=O)[C@H](CC(N)=O)NC(=O)c1ccc2ccccc2n1 | LAI | MT-2 |  | 0.021 µM
CC(C)=CCc1c(O)cc(O)c2c1OC(c1ccc(O)c(O)c1)CC2=O | IIIB | MT-4 |  | >100 µg/mL
Cc1cc(C#N)cc(C)c1Oc1nc(Nc2ccc(C#N)cc2)nc(N)c1Br | IIIB | MT-4 | NNRTI-resistant (RT K103N) | 0.00235 µM
Cc1cc(C#N)cc(C)c1Oc1nc(Nc2ccc(C#N)cc2)ncc1SCC(=O)N1CCSCC1 |  | MT-4 | Y181C | 0.36 µM
CN(C)C(=O)N1CCC(NC(=O)c2cc(O)c(O)c(O)c2)CC1 | IIIB | MT-4 |  | >34.3 µM
C#Cc1ccc(Nc2nccc(Oc3c(C)cc(-c4cn(Cc5ccccc5)nn4)cc3C)n2)cc1 | IIIB | MT-4 | L100I | 1.11 µM
Cc1cc(C#N)cc(C)c1Oc1nc(N/N=C/C2CCN(Cc3ccc(C#N)cc3)CC2)nc2ccsc12 | IIIB | MT-4 |  | 5.85 µM
Cc1cn([C@H]2C[C@H](N=[N+]=[N-])[C@@H](CO)O2)c(=O)[nH]c1=O |  | MT-4 | Y188L | 0.0147 µM
Cc1cn([C@H]2C[C@H](N=[N+]=[N-])[C@@H](CO)O2)c(=O)[nH]c1=O | IIIB | MT-4 |  | 0.0007 µM
C1CNCCNCCCN[C@H]([C@@H]2CNCCCNCCNCCCN2)CNC1 | IIIB | MT-4 |  | 0.1 µg/mL
Cc1cc(C#N)cc(C)c1Oc1nc(N/N=C/C2CCN(Cc3ccc(C(N)=O)cc3)CC2)nc2ccsc12 | IIIB | MT-4 |  | >4.65 µM
COc1ccc(C(=O)CSc2nc(CCC3CCCCC3)cc(=O)[nH]2)cc1 | IIIB | MT-4 |  | 35.7 µM
Cn1c(=O)cc(Oc2nc(Nc3ccc(C#N)cc3)nc(Nc3nc4ccc(Br)cc4s3)n2)c2ccccc21 | IIIB |  |  | >14.5 µg/mL
O=C1N(Cc2ccccc2Cl)c2cscc2S(=O)(=O)N1Cc1ccccc1 | IIIB | MT-4 |  | 0.1 µM
Cc1cc(C#N)cc(C)c1Oc1nc(N/N=C/C2CCN(Cc3cccc(C(N)=O)c3)CC2)nc2ccsc12 | IIIB | MT-4 |  | >4.68 µM
CC(C)CN(C[C@@H](O)[C@H](Cc1ccccc1)NC(=O)O[C@H]1CCOC1)S(=O)(=O)c1ccc(N)cc1 | LAI | MT-2 |  | 0.03 µM
CCC(C)n1cc(C(=O)O)c(=O)c2cc(I)c(Oc3ccnc(Nc4ccc(C#N)cc4)n3)cc21 | IIIB | MT-4 |  | 0.048 µM
NC(=O)c1ccc(NC2=NS(=O)(=O)NC(Cc3ccccc3)=C2)cc1 | IIIB | MT-4 |  | >286 µM
O=C(NC1CCN(C(=O)c2ccccc2)CC1)c1cc(O)c(O)c(O)c1 | IIIB | MT-4 |  | >38.3 µM
Cc1cn([C@H]2C[C@H](N=[N+]=[N-])[C@@H](CO)O2)c(=O)[nH]c1=O | IIIB | MT-4 | NNRTI-resistant (RT F227L V106A) | 0.00479 µM
N=C1Sc2ccccc2C2=NCCCCN12 | IIIB | MT-4 |  | 3.3 µM
CCOC(=O)C(=O)CC(=O)c1cccc(Oc2ccnc(Nc3ccc(C#N)cc3)n2)c1 | IIIB | MT-4 | Y188L | >13 µM
O=S1(=O)N=C(Nc2ccc(Br)cc2)C=C(Cc2ccccc2)N1 | IIIB | MT-4 |  | >163 µM
Cc1cc(C#N)cc(C)c1Oc1nc(NC2CCN(Cc3cccc(C(N)=O)c3)CC2)nc2sccc12 | IIIB | MT-4 | NNRTI-resistant (RT K103N) | 0.00888 µM
COc1cccc(C(=O)N2CCC(NC(=O)c3cc(O)c(O)c(O)c3)CC2)c1 | IIIB | MT-4 |  | >76.6 µM
C1CNCCNCCCN(CCCN2CCCNCCNCCCNCC2)CCNC1 | IIIB | MT-4 |  | 0.1 µg/mL
N#Cc1ccc(Nc2nccc(Oc3cccc(C(=O)CC(=O)C(=O)O)c3)n2)cc1 | IIIB | MT-4 | Y188L | >10 µM
Cc1c(C(C)CC2CCCCC2)nc(SCC(=O)c2ccc(F)cc2)[nH]c1=O | IIIB | MT-4 |  | 1.01 µM
CC(C)(C)c1ccc(S(=O)(=O)N2CCC(NC(=O)c3cc(O)c(O)c(O)c3)CC2)cc1 | IIIB | MT-4 |  | >131 µM
Cn1ncc2c1S(=O)(=O)N(CCc1ccccc1)C(=O)N2CCc1ccc(C#N)cc1 | IIIB | MT-4 |  | >20.4 µM
Cc1ccnc2c1NC(=O)c1cccnc1N2C1CC1 | IIIB | MT-4 | L100I | 2.22 µM
Cc1cc(C#N)cc(C)c1Oc1nc(N/N=C/C2CCN(Cc3ccccn3)CC2)nc2ccsc12 | IIIB | MT-4 |  | >4.18 µM
COc1c2c(cc(O)c1CC=C(C)C)OCC(c1ccc(O)cc1O)=C2 | IIIB | MT-4 |  | >20 µg/mL
Cn1ncc2c1S(=O)(=O)N(CCc1ccccc1)C(=O)N2CCc1ccc(Cl)cc1 | IIIB | MT-4 |  | >47.5 µM
CCCCn1cc(C(=O)O)c(=O)c2cc(Br)c(Oc3ccnc(Nc4ccc(C#N)cc4)n3)cc21 | IIIB | MT-4 | K103N Y181C NNRTI-resistant | 3.2 µM
Cc1cn([C@H]2C[C@H](N=[N+]=[N-])[C@@H](CO)O2)c(=O)[nH]c1=O | MN | C8166 |  | 0.00335 µM
COC[C@@H](c1ccc(C(F)(F)F)cc1)N1CCN(C2(C)CCN(C(=O)c3c(C)ncnc3C)CC2)C[C@@H]1C | NL4-3 | MT-4 |  | >5 µM
[N-]=[N+]=Nc1ccc2c(c1)SC(=N)N1CCCN=C21 | IIIB | MT-4 |  | 5.3 µM
CCc1c(CCC2CCCCC2)nc(SCC(=O)c2ccc(F)cc2)[nH]c1=O | IIIB | MT-4 |  | 0.14 µM
Cc1cn([C@H]2C[C@H](N=[N+]=[N-])[C@@H](CO)O2)c(=O)[nH]c1=O | IIIB | MT-4 | L100I | 0.006 µM
NS(=O)(=O)c1ccc(NC2=NS(=O)(=O)NC(Cc3ccccc3)=C2)cc1 | IIIB | MT-4 |  | >318 µM
Cn1ncc2c1S(=O)(=O)N(CCc1ccc(C(C)(C)C)cc1)C(=O)N2CCc1ccc(C(C)(C)C)cc1 | IIIB | MT-4 |  | >7.5 µM
O=S1(=O)NC(Cc2ccc3ccccc3c2)=CC(=NCc2ccccc2)N1 | IIIB | MT-4 |  | >161 µM
CS(=O)(=O)N1CCC2(CC1)CN=C1c3ccc(Br)cc3SC(=N)N1C2 | IIIB | MT-4 |  | 5.2 µM
C=CC(C)(C)c1cc([C@@H]2COc3c(ccc4c3C=CC(C)(C)O4)C2)c(O)cc1O | IIIB | MT-4 |  | >20 µg/mL
Cc1cn([C@H]2C[C@H](N=[N+]=[N-])[C@@H](CO)O2)c(=O)[nH]c1=O | IIIB | MT-4 |  | 0.0071 µM
COc1ccc(C(=O)CSc2nc(C(C)C3CCCCC3)c(C)c(=O)[nH]2)cc1 | IIIB | MT-4 |  | 0.06 µM
Cc1cn([C@H]2C[C@H](N=[N+]=[N-])[C@@H](CO)O2)c(=O)[nH]c1=O |  | MT-4 |  | 0.0004 µM
Cn1ncc2c1S(=O)(=O)N(CCc1ccccc1)C(=O)N2CCc1ccc(Cl)cc1Cl | IIIB | MT-4 |  | >277.2 µM
Cc1ccnc2c1NC(=O)c1cccnc1N2C1CC1 | IIIB | MT-4 | Y181C | >15 µM
COC(=O)c1ccc(C(=O)N2CCC(NC(=O)c3cc(O)c(O)c(O)c3)CC2)cc1 | IIIB | MT-4 |  | >26.9 µM
CCc1c(C(C)C2CCCCC2)nc(SCC(=O)c2ccccc2)[nH]c1=O | IIIB | MT-4 |  | 0.018 µM
N=C1Sc2cc(Br)ccc2C2=NCC3(CCCCC3)CN12 | IIIB | MT-4 |  | 2.3 µM
Cc1cn([C@H]2C[C@H](N=[N+]=[N-])[C@@H](CO)O2)c(=O)[nH]c1=O |  | MT-4 | F227L + V106A mutant | 0.005 µM
CC(C)=CCC/C(C)=C/Cc1cc([C@H]2Oc3c(CC=C(C)C)c(O)cc(O)c3C(=O)[C@@H]2O)ccc1O | IIIB | MT-4 |  | >10 µg/mL
N#Cc1ccc(Nc2nccc(C(Cl)c3ccc(F)cc3)n2)cc1 | IIIB | MT-4 | K103N + Y181C | 35.4 µM
Cn1c(=O)cc(Oc2nc(Nc3ccc(C#N)cc3)nc(Nc3nc4ccc(Cl)cc4s3)n2)c2ccccc21 | IIIB |  |  | >2.19 µg/mL
CCOC(=O)C1CN(Cc2ccc(S(N)(=O)=O)cc2)CCC1Nc1nc(Oc2c(C)cc(C#N)cc2C)c2sccc2n1 | IIIB | MT-4 | NNRTI-resistant (RT K103N) | 0.239 µM
CC(C)CN(C[C@@H](O)[C@H](Cc1ccccc1)NC(=O)O[C@H]1CO[C@H]2OCC(F)(F)[C@H]21)S(=O)(=O)c1ccc(N)cc1 | LAI | MT-2 |  | 0.003 µM
Cc1cc(/C=C/C#N)cc(C)c1Oc1nc(Nc2ccc(CN3CCN(S(N)(=O)=O)CC3)cc2)nc2ccsc12 | IIIB | MT-4 | K103N | 0.007 µM
Cn1cc(C(=O)O)c(=O)c2cc(Br)c(Oc3ccnc(Nc4ccc(C#N)cc4)n3)cc21 | IIIB | MT-4 | K103N Y181C NNRTI-resistant | >8.78 µM
N=C1Sc2cc(-c3cccc(O)c3)ccc2C2=NCCCN12 | IIIB | MT-4 |  | 0.96 µM
Cc1cc(C#N)cc(C)c1Oc1nc(N/N=C/c2ccc(C#N)cc2F)nc2ccsc12 | RES056 | MT-4 | K103N/Y181C | >56.5 µM
N=C1Sc2cccc(F)c2C2=NCCCN12 | IIIB | MT-4 |  | 3.7 µM
COc1ccc(NC2=NS(=O)(=O)NC(Cc3ccccc3)=C2)cc1 | IIIB | MT-4 |  | >318 µM
COc1cc2c(c(O)c1CC=C(C)C)C(=O)C(c1ccc(O)cc1O)CO2 | IIIB | MT-4 |  | >20 µg/mL
O=C(NC1CCNCC1)c1cc(O)c(O)c(O)c1 | IIIB | MT-4 |  | >42.1 µM
CC(C)=CCc1cc([C@H]2Oc3c(ccc(O)c3CC=C(C)C)C(=O)[C@@H]2O)ccc1O | IIIB | MT-4 |  | 1.17 µg/mL
O=S1(=O)NC(Cc2ccc3ccccc3c2)=CC(=NC2CC2)N1 | IIIB | MT-4 |  | >218 µM
Cc1cc(C#N)cc(C)c1Oc1nc(NC2CCC(NCc3ccc(Br)cc3)CC2)nc2ccsc12 | IIIB | MT-4 | NNRTI-resistant (RT F227L V106A) | >3.45 µM
N=C1Sc2cc(Br)ccc2C2=NCCCN12 | IIIB | MT-4 |  | 2.9 µM
COc1c(O)ccc(C2CC(=O)c3c(O)cc(O)c(CC=C(C)C)c3O2)c1CC=C(C)C | IIIB | MT-4 |  | 3 µg/mL

Repeating the first 11 entries:

SMILES,strain or isolate,cells,mutations,value
Cc1cc(/C=C/C#N)cc(C)c1Oc1nc(N/N=C/c2ccc(C#N)cc2)nc2ccsc12,RES056,MT-4,K103N/Y181C,>96.6 µM
C#Cc1ccc(Nc2nccc(Oc3c(C)cc(-c4cn(CC(=O)OC)nn4)cc3C)n2)cc1,IIIB,MT-4,Y188L,>10.35 µM
Cc1cc(C)cc(S(=O)(=O)c2c(C(N)=O)[nH]c3ccc(Cl)cc23)c1,WILD TYPE,C8166,,0.01 µM
CC(C)=CCc1c(O)ccc(C(=O)/C=C/c2ccc(O)cc2)c1O,IIIB,MT-4,,>20 µg/mL
C=C1[C@H](CO)[C@@H](O)C[C@@H]1n1cnc2c(=O)[nH]c(N)nc21,RES056,MT-4,K103N/Y181C,0.035 µM
CC(C)(C)n1cc(C(=O)O)c(=O)c2cc(Br)c(Oc3ccnc(Nc4ccc(C#N)cc4)n3)cc21,IIIB,MT-4,K103N Y181C NNRTI-resistant,>23.58 µM
Cn1c(=O)cc(Oc2nc(Nc3ccc(C#N)cc3)nc(Sc3nc4ccccc4s3)n2)c2ccccc21,IIIB,,,>72.78 µg/mL
CC(C)(C)NC(=O)[C@@H]1C[C@@H]2CCCC[C@@H]2CN1C[C@@H](O)[C@H](Cc1ccccc1)NC(=O)[C@H](CC(N)=O)NC(=O)c1ccc2ccccc2n1,LAI,MT-2,,0.021 µM
CC(C)=CCc1c(O)cc(O)c2c1OC(c1ccc(O)c(O)c1)CC2=O,IIIB,MT-4,,>100 µg/mL
Cc1cc(C#N)cc(C)c1Oc1nc(Nc2ccc(C#N)cc2)nc(N)c1Br,IIIB,MT-4,NNRTI-resistant (RT K103N),0.00235 µM
Cc1cc(C#N)cc(C)c1Oc1nc(Nc2ccc(C#N)cc2)ncc1SCC(=O)N1CCSCC1,,MT-4,Y181C,0.36 µM